The values that follow come from publication PMC12856293 (The Journal of Biological Chemistry, 2025).

The subject of series [1] is CCCCC(=O)SCCNC(=O)CCNC(=O)[C@H](O)C(C)(C)COP(=O)(O)OP(=O)(O)OC[C@H]1O[C@@H](n2cnc3c(N)ncnc32)[C@H](O)[C@@H]1OP(=O)(O)O. The series can be described thus: purified protein. As to conditions: pH 7.2; 25.0 °C.
In series [2] the test system is CCCC(=O)SCCNC(=O)CCNC(=O)[C@H](O)C(C)(C)COP(=O)(O)OP(=O)(O)OC[C@H]1O[C@@H](n2cnc3c(N)ncnc32)[C@H](O)[C@@H]1OP(=O)(O)O. The series can be described thus: purified protein. Conditions: pH 7.2; 25.0 °C.

As to “TrzAMtb (Rv1356c) (Mycobacterium tuberculosis H37Rv)”, the Km turned out to be 23 ± 3 µM in series [1] and 85 ± 10 µM in series [2].
